# In-gel DMS probing of monomeric and dimeric HIV-1 RNA

Data from the supplement of Ye et al. 2022, doi:10.1038/s41594-022-00746-2.

Sequence of the HIV-1 NL4-3 5' RNA, positions 1 to 437, as numbered in the source:
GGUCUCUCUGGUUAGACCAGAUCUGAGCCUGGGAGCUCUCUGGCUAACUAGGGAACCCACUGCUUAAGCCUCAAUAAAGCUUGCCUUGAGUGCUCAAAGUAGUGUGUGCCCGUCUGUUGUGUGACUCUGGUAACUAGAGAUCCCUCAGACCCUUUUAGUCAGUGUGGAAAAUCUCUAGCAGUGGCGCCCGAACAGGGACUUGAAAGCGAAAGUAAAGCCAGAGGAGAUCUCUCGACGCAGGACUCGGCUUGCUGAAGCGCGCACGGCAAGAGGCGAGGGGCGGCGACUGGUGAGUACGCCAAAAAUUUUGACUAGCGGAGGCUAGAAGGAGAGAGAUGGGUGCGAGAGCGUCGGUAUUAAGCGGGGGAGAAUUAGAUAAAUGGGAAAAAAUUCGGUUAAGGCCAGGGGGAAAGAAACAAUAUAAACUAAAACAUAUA

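Mutant RNA libraries with 1G, 2G or 3G starts, with or without cap, were folded at 37 °C for 30 min. High salt was 300 mM KCl and 5 mM MgCl2, low salt 40 mM KCl and 0.1 mM MgCl2; monomer and dimer were parted on a native gel. Gel slices were treated with 170 mM dimethyl sulfate for 15 min at 37 °C and read by mutational profiling against an ethanol control.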

Values are winsor-normalised DMS reactivities of A and C; higher means more reactive, usually unpaired.
One numbering serves 1G, 2G and 3G.
A position is written with its base.

- A220 = 1G capped low-salt dimer 0.24; 3G uncapped low-salt dimer 0.18; 3G capped low-salt dimer 0.18; 3G uncapped high-salt dimer 0.18
- A222 = 1G capped low-salt dimer 0.27; 3G uncapped low-salt dimer 0.20; 3G capped low-salt dimer 0.21; 3G uncapped high-salt dimer 0.23
- A225 = 1G capped low-salt dimer 0.78; 3G uncapped low-salt dimer 0.82; 3G capped low-salt dimer 0.79; 3G uncapped high-salt dimer 0.79
- A227 = 1G capped low-salt dimer 0.30; 3G uncapped low-salt dimer 0.26; 3G capped low-salt dimer 0.25; 3G uncapped high-salt dimer 0.28
- C229 = 1G capped low-salt dimer 0.15; 3G uncapped low-salt dimer 0.13; 3G capped low-salt dimer 0.16; 3G uncapped high-salt dimer 0.17
- C231 = 1G capped low-salt dimer 0.12; 3G uncapped low-salt dimer 0.14; 3G capped low-salt dimer 0.14; 3G uncapped high-salt dimer 0.14
- C233 = 1G capped low-salt dimer 0.18; 3G uncapped low-salt dimer 0.19; 3G capped low-salt dimer 0.18; 3G uncapped high-salt dimer 0.18
- A235 = 1G capped low-salt dimer 0.76; 3G uncapped low-salt dimer 0.67; 3G capped low-salt dimer 0.68; 3G uncapped high-salt dimer 0.69
- C236 = 1G capped low-salt dimer 0.47; 3G uncapped low-salt dimer 0.46; 3G capped low-salt dimer 0.45; 3G uncapped high-salt dimer 0.42
- C238 = 1G capped low-salt dimer 0.51; 3G uncapped low-salt dimer 0.51; 3G capped low-salt dimer 0.48; 3G uncapped high-salt dimer 0.49
- A239 = 1G capped low-salt dimer 0.72; 3G uncapped low-salt dimer 0.66; 3G capped low-salt dimer 0.68; 3G uncapped high-salt dimer 0.65
- A242 = 1G capped low-salt dimer 1.09; 3G uncapped low-salt dimer 1.03; 3G capped low-salt dimer 1.00; 3G uncapped high-salt dimer 1.11
- C243 = 1G capped low-salt dimer 0.06; 3G uncapped low-salt dimer 0.05; 3G capped low-salt dimer 0.03; 3G uncapped high-salt dimer 0.03
- C245 = 1G capped low-salt dimer 0.09; 3G uncapped low-salt dimer 0.07; 3G capped low-salt dimer 0.08; 3G uncapped high-salt dimer 0.08
- C248 = 1G capped low-salt dimer 0.05; 3G uncapped low-salt dimer 0.05; 3G capped low-salt dimer 0.03; 3G uncapped high-salt dimer 0.03
- C252 = 1G capped low-salt dimer 0.08; 3G uncapped low-salt dimer 0.09; 3G capped low-salt dimer 0.06; 3G uncapped high-salt dimer 0.07
- A255 = 1G capped low-salt dimer 0.49; 3G uncapped low-salt dimer 0.39; 3G capped low-salt dimer 0.41; 3G uncapped high-salt dimer 0.37
- A256 = 1G capped low-salt dimer 1.05; 3G uncapped low-salt dimer 0.93; 3G capped low-salt dimer 0.93; 3G uncapped high-salt dimer 0.90
- C258 = 1G capped low-salt dimer 0.30; 3G uncapped low-salt dimer 0.28; 3G capped low-salt dimer 0.24; 3G uncapped high-salt dimer 0.23
- C260 = 1G capped low-salt dimer 0.44; 3G uncapped low-salt dimer 0.40; 3G capped low-salt dimer 0.36; 3G uncapped high-salt dimer 0.31
- C262 = 1G capped low-salt dimer 0.30; 3G uncapped low-salt dimer 0.27; 3G capped low-salt dimer 0.24; 3G uncapped high-salt dimer 0.22
- A263 = 1G capped low-salt dimer 0.76; 3G uncapped low-salt dimer 0.80; 3G capped low-salt dimer 0.78; 3G uncapped high-salt dimer 0.81
- C264 = 1G capped low-salt dimer 0.26; 3G uncapped low-salt dimer 0.23; 3G capped low-salt dimer 0.21; 3G uncapped high-salt dimer 0.21
- C267 = 1G capped low-salt dimer 0.10; 3G uncapped low-salt dimer 0.06; 3G capped low-salt dimer 0.05; 3G uncapped high-salt dimer 0.06
- A268 = 1G capped low-salt dimer 0.22; 3G uncapped low-salt dimer 0.16; 3G capped low-salt dimer 0.14; 3G uncapped high-salt dimer 0.14
- A269 = 1G capped low-salt dimer 0.33; 3G uncapped low-salt dimer 0.26; 3G capped low-salt dimer 0.21; 3G uncapped high-salt dimer 0.23